Anti-infective test results gathered from many reports (values: NIAID ChemDB through PubChem).

Common to all: target-level tests; species: Hepatitis C virus

Percent inhibition refers to the dose given; in toxicity tests it is the harm to the cells. Two numbers with a dash give a range or band. An empty or dashed field is not shown. Rows are shuffled and stem from different studies. ICn: concentration for n% inhibition.

| compound | read by | strain or isolate | tested at | measure | target | result |
|---|---|---|---|---|---|---|
| C=CCCCc1ccc(S(=O)(=O)NC(=O)c2ccccc2NC(=O)C(NC(=O)OC(C)(C)C)c2ccc(C=C)c(Oc3cc(OC)nc(-c4ccccc4)n3)c2)cc1 | FRET | GT1a | - | Ki | Nonstructural protein 3/4A | 0.19 µM |
| CC(C)Cc1ccc(-c2cc(NS(=O)(=O)c3cc(OCC(F)(F)F)ccc3OCC(F)(F)F)c(C(=O)O)s2)cc1 | - | - | - | IC50 | NS3 ATPase | >20 µM |
| O=C(NCCc1ccccc1)c1nc2ccccc2c(=O)n1O | fluorescence | 1b | - | IC50 | NS5B | 46.1 µM |
| C=Cc1ccc(C(NC(=O)c2cccnc2)C(=O)Nc2cccc(C(=O)NS(=O)(=O)c3ccc(C(F)(F)F)cc3)c2)cc1Oc1cc(OC)nc(-c2ccccc2)n1 | FRET | GT1a | - | Ki | Nonstructural protein 3/4A | 0.24 µM |
| CCC(=O)N[C@H](C(=O)N1C[C@H](OCc2ccccc2)C[C@H]1C(=O)N[C@H](C=O)CC)C(C)C | - | - | - | Ki | NS3 protease | >100 µM |
| O=C(N[C@@H](Cc1cc2ccccc2[nH]1)C(=O)O)c1cc2nc(OCc3ccccc3)c(CC3CCCCC3)c(=O)n2[nH]1 | - | - | - | IC50 | RNA-dependent RNA polymerase | 1–10 µM |
| O=C(Nc1cscc1-c1nc(C(=O)O)c(O)c(=O)[nH]1)OCCc1ccccc1 | - | - | - | IC50 | HCV polymerase | <25 µM |
| CC[C@@H](C=O)NC(=O)[C@@H]1C[C@@H](OCc2c(C)noc2C)CN1C(=O)[C@@H](NC(=O)[C@@H](NC(=O)c1cnccn1)C(C)C)C(C)C | - | - | - | Ki | NS3 protease | 1–100 µM |
| CCCCOC(=O)c1ccc(CCCC)nc1N(CCC)c1ccc(N2CCOCC2)cc1 | - | - | 0.1 µg/mL | inhibition | NS5B polymerase | 30–55% |
| O=C(NCCCc1ccccc1)c1nc2ccccc2c(=O)n1O | fluorescence | 1b | - | IC50 | NS5B | 8.8 µM |
| O=C(O)c1cc2nc(-c3ccc(Oc4ccccc4)cc3)cc(-c3cccc(OCc4ccccc4)c3)n2n1 | - | - | - | IC50 | RNA-dependent RNA polymerase | 1–10 µM |
| C=CC1CC1(NC(=O)[C@@H]1C[C@@H](OC(=O)Nc2ccccc2I)CN1C(=O)[C@@H](NC(=O)OC(C)(C)C)C(C)(C)C)C(=O)NS(=O)(=O)C1CC1 | - | BMS/H77C/J416S | - | IC50 | NS3/NS4A protease | <0.1 µM |
| CCOC(=O)c1c(C)[nH]c(C)c1S(=O)(=O)Nc1cc(-c2ccccc2)sc1C(=O)O | - | - | - | IC50 | NS3 ATPase | 5–20 µM |
| O=C(O)c1cnn2c(C3CCCCC3)c(-c3ccccc3)cnc12 | - | - | - | IC50 | RNA-dependent RNA polymerase | <1 µM |
| CCSc1nc(Nc2ccc(N(CC)CC)cc2)cc(N2CCN(C(=O)c3ncccn3)CC2)n1 | - | - | 0.1 µg/mL | inhibition | NS5B polymerase | 30–55% |
| C=CC1CC1(NC(=O)[C@@H]1C[C@@H](OC(=O)Nc2cc(Cl)ccc2C)CN1C(=O)[C@@H](NC(=O)OC(C)(C)C)C(C)(C)C)C(=O)NS(=O)(=O)C1CC1 | - | BMS/H77C/J416S | - | IC50 | NS3/NS4A protease | <0.1 µM |
| CC[C@@H](C=O)NC(=O)[C@@H]1C[C@@H](OCc2ccccc2)CN1C(=O)[C@@H](NC(=O)[C@H](Cc1ccccc1)NC(=O)c1cnccn1)C(C)C | - | - | - | Ki | NS3 protease | 1–100 µM |
| O=C(O)c1cc2nc(-c3ccc(Cl)cc3)cc(Nc3cccc(OCc4ccccc4)c3)n2n1 | - | - | - | IC50 | RNA-dependent RNA polymerase | >10 µM |
| O=C(Nc1ccsc1-c1nc(C(=O)O)c(O)c(=O)[nH]1)OCCc1ccccc1Cl | - | - | - | IC50 | HCV polymerase | <25 µM |
| C=Cc1ccc(C(N)C(=O)Nc2cccc(C(=O)NS(=O)(=O)c3ccc(C(F)(F)F)cc3)c2)cc1Oc1cc(OC)nc(-c2ccccc2)n1 | FRET | GT1a | - | Ki | Nonstructural protein 3/4A | 1.2 µM |
| C=CC1CC1(NC(=O)[C@@H]1C[C@@H](OC(=O)Nc2cccc(OC)c2)CN1C(=O)[C@@H](NC(=O)OC(C)(C)C)C(C)(C)C)C(=O)NS(=O)(=O)C1CC1 | - | BMS/H77C/J416S | - | IC50 | NS3/NS4A protease | <0.1 µM |
| Cc1ccccc1S(=O)(=O)Nc1cc(-c2ccc(N=[N+]=[N-])cc2)sc1C(=O)O | - | - | - | IC50 | NS3 ATPase | <5 µM |
| C=CCCc1c(-c2ccc(OCc3ccccc3)cc2)nc2c(C(=O)O)c[nH]n2c1=O | - | - | - | IC50 | RNA-dependent RNA polymerase | >10 µM |
| C=CC1CC1(NC(=O)[C@@H]1C[C@@H](OC(=O)Nc2ccccc2SC)CN1C(=O)[C@@H](NC(=O)OC(C)(C)C)C(C)(C)C)C(=O)NS(=O)(=O)C1CC1 | - | BMS/H77C/J416S | - | IC50 | NS3/NS4A protease | <0.1 µM |
| CCN(CC)c1ccc(Nc2cc(N3CCN(C(=O)c4ccncc4)CC3)nc(SCc3ccccc3)n2)cc1 | - | - | 0.1 µg/mL | inhibition | NS5B polymerase | 30–55% |
| O=C(CC(c1ccccc1)c1ccccc1)Nc1cscc1-c1nc(C(=O)O)c(O)c(=O)[nH]1 | - | - | - | IC50 | HCV polymerase | <25 µM |
| COc1ccc(CNC(=O)c2nc3ccccc3c(=O)n2O)cc1 | fluorescence | 1b | - | IC50 | NS5B | 13.9 µM |
| COc1ccc(N(C)c2cc(-c3ccc(Cl)cc3)nc3cc(C(=O)O)nn23)cc1 | - | - | - | IC50 | RNA-dependent RNA polymerase | >10 µM |
| CCSc1nc(Nc2ccc(N(CC)CC)cc2)cc(N2CCN(C(=O)c3ccccc3)CC2)n1 | - | - | 0.1 µg/mL | inhibition | NS5B polymerase | 30–55% |
| CC[C@H](NC(=O)[C@H](CC(C)C)NC(=O)[C@@H](NC(=O)[C@@H](NC(=O)c1cnccn1)C(C)C)C(C)C)C(=O)C(=O)N[C@H](C)c1ccccc1 | - | - | - | Ki | NS3 protease | 1–100 µM |
| C=Cc1ccc(C(NC(=O)N2CCOCC2)C(=O)Nc2cccc(C(=O)NS(=O)(=O)c3ccc(C(F)(F)F)cc3)c2)cc1Oc1cc(OC)nc(-c2ccccc2)n1 | FRET | GT1a | - | Ki | Nonstructural protein 3/4A | 0.59 µM |
| Cc1ccccc1S(=O)(=O)Nc1cc(-c2cn[nH]c2)sc1C(=O)O | - | - | - | IC50 | NS3 ATPase | <5 µM |
| COc1ccc(OC)c(COc2ccc(-c3cnc4c(-c5nn[nH]n5)cnn4c3C3CCCCC3)cc2)c1 | - | - | - | IC50 | RNA-dependent RNA polymerase | 1–10 µM |
| O=C(Nc1cccc(-c2nc(O)c(O)c(C(=O)O)n2)c1)Nc1cccc(-c2nc(O)c(O)c(C(=O)O)n2)c1 | - | - | - | IC50 | HCV polymerase | <100 µM |
| O=C(O)c1sc(-c2ccccc2)cc1N(Cc1ccc(F)cc1F)C(=O)C1CCCCC1 | - | - | - | IC50 | NS3 ATPase | <5 µM |
| COc1ccc(S(=O)(=O)Nc2ccccc2-c2nc(C(=O)O)c(O)c(=O)[nH]2)cc1 | - | - | - | IC50 | HCV polymerase | <100 µM |
| O=C(NCc1ccc(Cl)c(Cl)c1)c1nc2ccccc2c(=O)n1O | fluorescence | 1b | - | IC50 | NS5B | 28.1 µM |
| O=C(NCc1cscn1)Nc1cscc1-c1nc(C(=O)O)c(O)c(=O)[nH]1 | - | - | - | IC50 | HCV polymerase | <25 µM |
| C=CCCCS(=O)(=O)NC(=O)c1cccc(NC(=O)C(NC(=O)OC(C)(C)C)c2ccc(C=C)c(Oc3cc(OC)nc(-c4ccccc4)n3)c2)c1 | FRET | GT1a | - | Ki | Nonstructural protein 3/4A | 0.21 µM |
| Cc1ccc(S(=O)(=O)Nc2cc(-c3ccc(/C=C/C(=O)O)cc3)sc2C(=O)O)c(C)c1 | - | - | - | IC50 | NS3 ATPase | <5 µM |
| CCCNC(=O)C(=O)[C@H](CC)NC(=O)[C@H](CC(C)C)NC(=O)[C@@H](NC(=O)[C@@H](NC(=O)c1cnccn1)C(C)C)C(C)C | - | - | - | Ki | NS3 protease | 1–100 µM |
| C=CC1CC1(NC(=O)[C@@H]1C[C@@H](OC(=O)NCc2ccccc2Cl)CN1C(=O)[C@@H](NC(=O)OC(C)(C)C)C(C)(C)C)C(=O)NS(=O)(=O)C1CC1 | - | BMS/H77C/J416S | - | IC50 | NS3/NS4A protease | <0.1 µM |
| C=CCCCS(=O)(=O)NC(=O)c1ccc(NC(=O)C(NC(=O)OC(C)(C)C)c2ccc(C=C)c(Oc3cc(OC)nc(-c4ccccc4)n3)c2)cc1 | FRET | GT1a | - | Ki | Nonstructural protein 3/4A | 0.22 µM |
| C=CC1CC1(NC(=O)[C@@H]1C[C@@H](OC(=O)Nc2cc(Cl)cc(Cl)c2)CN1C(=O)[C@@H](NC(=O)OC(C)(C)C)C(C)(C)C)C(=O)NS(=O)(=O)C1CC1 | - | BMS/H77C/J416S | - | IC50 | NS3/NS4A protease | <0.1 µM |
| CC(C)CC(=O)N(Cc1ccccc1Cl)c1cc(-c2ccccc2)sc1C(=O)O | - | - | - | IC50 | NS3 ATPase | 5–20 µM |
| COc1ccccc1-c1cc(-c2ccc(Oc3ccccc3)cc2)nc2cc(C(=O)O)nn12 | - | - | - | IC50 | RNA-dependent RNA polymerase | 1–10 µM |
| CC(=O)NCc1ccc(COC(=O)Nc2ccsc2-c2nc(C(=O)O)c(O)c(=O)[nH]2)cc1 | - | - | - | IC50 | HCV polymerase | <25 µM |

The first 3 rows once more:

compound | read by | strain or isolate | tested at | measure | target | result
C=CCCCc1ccc(S(=O)(=O)NC(=O)c2ccccc2NC(=O)C(NC(=O)OC(C)(C)C)c2ccc(C=C)c(Oc3cc(OC)nc(-c4ccccc4)n3)c2)cc1 | FRET | GT1a | - | Ki | Nonstructural protein 3/4A | 0.19 µM
CC(C)Cc1ccc(-c2cc(NS(=O)(=O)c3cc(OCC(F)(F)F)ccc3OCC(F)(F)F)c(C(=O)O)s2)cc1 | - | - | - | IC50 | NS3 ATPase | >20 µM
O=C(NCCc1ccccc1)c1nc2ccccc2c(=O)n1O | fluorescence | 1b | - | IC50 | NS5B | 46.1 µM